Measurements: the supplement of paper PMC9931576
Human monoclonal antibodies against the spike receptor-binding domain (heavy:light variable regions). IC50 against pseudoviruses bearing the spike of naturally observed variants; lower = stronger; >10 µg/ml means not reached at the top dose. No active / inactive call. The stated detection limit is 0.0005 µg/ml; values near or below 0.001 µg/ml lie at the floor of the assay.

Legend:
Assay in all cases: pseudovirus neutralization IC50; higher = weaker neutralization
[1] = target: SARS-CoV-2 Omicron BA.1 spike pseudovirus
Description: (§1)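 Single-round VSV luciferase pseudovirus mixed with antibody dilutions for 1 h and put on Huh-7 cells for about a day; IC50 from the dose curve.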

[2] = target: SARS-CoV-2 Omicron BA.2 spike pseudovirus
Description: as §1

[3] = target: SARS-CoV-2 Omicron BA.2.75 spike pseudovirus
Description: as §1

[4] = target: SARS-CoV-2 Omicron BA.5 spike pseudovirus
Description: as §1

[5] = target: SARS-CoV-2 Omicron BQ.1.1 spike pseudovirus
Description: as §1

[6] = target: SARS-CoV-2 Omicron XBB spike pseudovirus
Description: as §1

[7] = target: SARS-CoV-2 early D614G spike pseudovirus
Description: as §1

Row | Binder | pseudovirus neutralization IC50 [1] [µg/mL] | pseudovirus neutralization IC50 [2] [µg/mL] | pseudovirus neutralization IC50 [3] [µg/mL] | pseudovirus neutralization IC50 [4] [µg/mL] | pseudovirus neutralization IC50 [5] [µg/mL] | pseudovirus neutralization IC50 [6] [µg/mL] | pseudovirus neutralization IC50 [7] [µg/mL]
1 | BD55-5583 (protein) chain 1: QVQLVQSGAEVKKPGASVKLSCKGSGYIFSNYGINWVRQTPGQGLEWMGWIGANNRNTDSAQKLQDRLTFTTDTSASTAYMELRSLTSDDTAVYYCARGAHYWGPEDAFDVWGQGTMVTVSS chain 2: DVVLTQSPLSLPVTLGQPASISCRSSQSVVYSDGDTYLNWFQQRPGQSPRRLIYKVSNRDSGVPDRFSGSGSGTDFTLKISRVEAEDVGVYYCMQGTNWPRTFGQGTKVEIK | 1.27 | 1.66 | 1.04 | 1.47 | 2.02 | 2.09 | 0.125
2 | BD55-5585 (protein) chain 1: QLQLQESGPGLVKPSEILSLTCTVSGGSISSGTDYWGWIRQPPGKGLEWIGSIYYSGSTSYSPSLKSRVTISVDTFKNQFSLKLNSVTAADTAVYYCARHLGQRSLWLLPLYFDYWGQGALVTVSS chain 2: SYDLTQPPSVSVSPGQTARITCSGDALPNQYAYWYQQKPGQAPVLAIYKDTERPSGIPERFSGSTSGTTATLTISGVQADDEADYYCQSADSSTTYVVFGGGTKLTVL | 0.0132 | 0.164 | 0.306 | 0.269 | > 10 | > 10 | 0.00213
3 | BD55-5588 (protein) chain 1: QITLKESGPTLVKPTQTLTLTCTFSGFSLSTTEVSVGWIRQSPGKALEWLALIYWDDGKRYSPTLESRLTITKDTSKNQVVLVMTHMDPVDTATYFCVHSHFDLSTGYFGFDFWGQGILVTVSS chain 2: DIVMTQTPLSSPVTLGQPASISCRSSQSLVHSDGNTYLSWFHQRPGQPPRLLIYKVSNRFSGVPDRFSGSGAGTDFTLKISRVEAEDVGVYYCMQATQFPHEMYTFGQGTKLEIK | > 10 | > 10 | > 10 | > 10 | > 10 | > 10 | 0.0636
4 | BD55-1078 (protein) chain 1: QVQLVQSGAEVKKPGSSVKVSCKASGDTFTRFAISWVRQAPGQGPEWMGRIIPMFGIANYAHQFQGRVTITADKSTNTAYMELSSLRSEDTAFFYCARDHYLDNSVPRLDYWGQGTLVTVSS chain 2: DIQMTQSPSSLSASVGDRVTITCRASQSIAGYLNWYQQKPGKAPNLLIYATSTLHSGVPSRFSGSGSGTDYTLTISSLQREDFATYYCQQTHSAPRTFGQGTKVEIK | > 10 | > 10 | > 10 | > 10 | > 10 | > 10 | 0.001
5 | BD55-5609 (protein) chain 1: QVQLVQSGAEVKKPGSSVRVSCKPAGGTFNSYAITWVRQAPGQGLEWMGGIIPVFDTTHYSQKFQGRVTINADESTSTVYMEVSSLTSHDTAIYYCAKSKYHPGYDVLTGRPDLNLPFDRWGQGTLVTVSS chain 2: DIQMTQSPSSLSASVGDRVTITCQASQGIDKYLSWYQQKPGKAPKLLIHAASSLETGVPSRFTGSGSGTDFTFTISSLQSEDIATYYCQQYDSLPYTFGQGTKLEIK | 1.07 | 1.43 | 2.77 | 3.07 | 4.62 | 3.54 | 0.793
6 | BD55-5629 (protein) chain 1: EVQLLESGGGLVQPGGSLRLSCAASEFTFSSYAMSWVRQAPGKGLEWVSVISGTGFTTEYADSVKGRFTISRDNAKNMLYLQMNGLRGEDTAVYFCVKDKLDSDIVAPAFAALSWGQGTLVSVSS chain 2: DIQMTQSPSSLSAAIGGRVTITCRASQSISTYLNWYQQKPGKAPKLLIYAASTLQSGVPSRFSGSGSGTDFTLTIGNVQREDSATYFCQQSYISPPVTFGQGTRLEIK | 0.233 | 3.87 | 2.3 | 5.49 | 2.38 | 4.47 | 0.0146
7 | BD55-5636 (protein) chain 1: EVQLVESGGGLVQPGGSLRLSCAASGFIFSNFAMHWVRQTPEKGLEFVSSITSDGGGRFYADSVKGRFTISRDNSRNTLYLQMGSLRAEDMAVYYCAREKNTYDFLGLSFDFWGRGSLVTVSS chain 2: DIQMTQSPASLSASVGGRVTITCRANQNINKNLNWYQHKPGKAPKLLIYAASSLQSGVPSRFRGSGSGTDFTLTISGLQPEDFATYYCQQTYITPMYTFGQGTTLEIK | > 10 | > 10 | > 10 | > 10 | > 10 | > 10 | > 10
8 | BD55-5640 (protein) chain 1: QVQLVQSGAEVKKPESSVKVSCKASGGNFNTYGINWVRQAPGQGFEWMGRIIPITGAADYAQKFQGRVTITADKVTSTVYMELNSLRSEDTAVYYCARGGGRGYSGYDYFDYDIDVWGQGTTVTVSS chain 2: DIQMTQSPSSLSASVGDRVTITCQASQGITKYLSWFQQKPGKAPKLLIHDASNLETGVPSRFSGSGSGTDFTFTISSLQPEDIATYYCQQYDNLPITFGQGTRLEIK | 0.0692 | > 10 | > 10 | > 10 | > 10 | > 10 | 0.0143
9 | BD55-5644 (protein) chain 1: QVQLVQSGSELKKPGASVKVSCKASGYTFSTYGINWVRQAPGQGLEWMGWINTDTGNPTYAQDFTGRFVFSLDTSVSTAYLRIDSLQSEDTAVYYCAKDRGFGEYYFDYWGQGTLVTVSS chain 2: EIVMTQSPVTLSVSPGERATLSCKARANYGVGSDLAWYQQKPGQAPRLLIYAAVIRATGIPARFSGSGSGTDFTLTISSLQSEDFAVYYCQQYKNWPLTFGGGTRVEIK | 3.51 | 8.98 | > 10 | 7.21 | > 10 | > 10 | 0.762
10 | BD55-5675 (protein) chain 1: QVHLVQSGAEVKKPGASVKVSCKASGYTFTSYSIHWVRQAPGEGLEWVGIINPTAGSTNYAQRFQGRVTMTRDTSTSTVYMELSSLTSEDTALYYCARDFAFSREYSGYDILDTSWFDPWGQGTLVTVST chain 2: DIVMTQSPDSLAVSLGERATINCKSSQSVLYNNKNYVAWYQQKPGQPPKVFIYWASTRASGVPDRFSGSGSGTDFTLTISSLQAEDVAIYYCHQYYSSPLTFGGGTKVEIK | 6.2 | > 10 | > 10 | > 10 | > 10 | > 10 | 0.0247
11 | BD55-5676 (protein) chain 1: EVQLVESGGGLVQPGRSLRLSCAASGFTFENHAMNWVRQAPGKGLEWVSGISWNSGRIGYADSVKGRFTISRDNAKNFLYLQMSSLRAEDTAFYYCARGYDSSGYYSPDNLPDYWGQGTLVTVSS chain 2: QLVVTQSPPASASLGASVKLTCTLSSGHSNNAVTWHQQQPEKGPRYLMKLNSDGSHHKGDGIPDRFSGSSSGAERYLIISSLQSEDEADYYCQTWDTGLNWVFGGGTKLTVL | > 10 | > 10 | > 10 | > 10 | > 10 | > 10 | 0.0132
12 | BD55-5687 (protein) chain 1: QITLKESGPTLVKPTQTLTLTCTFSGFSLSTSRVAVGWIRQPPGKALEWLALIFWDDDKRYSPSLRSRLTISKDTSKNQVALTMTNMEPVDTATYYCAHGWWDYYGSGTRFDFWGPGTLVTVSS chain 2: QSVLTQPPSASGTPGLRVTISCSGGSSNIGSNTVNWYQQLPGTAPKLLIYKDDQRPLGVPDRFSGSRSGTSASLAISGLQSEDEAHYYCATWDDSLNGPVFGGGTKLTVL | 5.08 | 4.13 | 3.49 | 3.65 | 2.41 | 2.14 | 2.33
